{"source": "patent US20230105082A1", "about": "“ANTIMICROBIAL COMPOSITIONS FOR PET FOOD PRODUCTS” (priority 2020, published 2023)", "key": {"dogs": {"test_system": "dogs", "assay": "Two-bowl palatability test, dogs", "format": "in vivo, dog", "conditions": "versus Control Diet"}, "cats": {"test_system": "cats", "assay": "Two-bowl palatability test, cats", "format": "in vivo, cat", "conditions": "versus Control Diet"}, "[1]": {"conditions": "500 ppm in fat coated on kibble"}, "[2]": {"conditions": "1000 ppm in fat coated on kibble"}}, "data": [{"compound": "CC(O)C(=O)O", "note": "(stereo not shown) [Composition 4, Lactic acid]", "values": [{"measurement": "DOG % A (consumption ratio of Food A)", "setting": "dogs; [1]", "value": 32, "unit": "%"}, {"measurement": "CAT % A (consumption ratio of Food A)", "setting": "cats; [1]", "value": 42, "unit": "%"}]}, {"compound": "CCCCC(=O)O", "note": "[Composition 3, Valeric acid]", "values": [{"measurement": "DOG % A (consumption ratio of Food A)", "setting": "dogs; [1]", "value": 28, "unit": "%"}]}, {"compound": "CCCC(=O)O", "note": "[Composition 2, Butyric acid]", "values": [{"measurement": "DOG % A (consumption ratio of Food A)", "setting": "dogs; [1]", "value": 18, "unit": "%"}, {"measurement": "CAT % A (consumption ratio of Food A)", "setting": "cats; [1]", "value": 55, "unit": "%"}]}, {"compound": "O=P(O)(O)O", "note": "[Composition 1, Phosphoric acid]", "values": [{"measurement": "DOG % A (consumption ratio of Food A)", "setting": "dogs; [2]", "value": 71, "unit": "%"}, {"measurement": "CAT % A (consumption ratio of Food A)", "setting": "cats; [2]", "value": 49, "unit": "%"}]}]}
